Measured values from several laboratories, pooled; numbers as filed in NIAID ChemDB.

All rows: growth or infection tests; species: Candida albicans; endpoint: MIC

An empty or dashed field is not shown. Conditions beyond the fields shown may differ between rows.

SMILES | strain | method | result
Clc1nssc1=Nc1cccc2ncccc12 | ATCC 10231 |  | 32 µg/mL
Oc1cccc(C=NNc2ccnc3cc(Cl)ccc23)c1 |  |  | >200 µg/mL
Cc1c(/C(=N/OC(=O)c2ccccc2)c2ccccc2)oc2ccccc12 |  |  | 256 µg/mL
Nc1ccc(S(=O)(=O)O)c2cc(S(=O)(=O)O)cc(O)c12 |  | agar diffusion | 50 µg/mL
Nc1c(Br)cc(Br)cc1CNC1CCC(O)CC1 | ATCC 90029 | MTT | 1000 µg/mL
Clc1nssc1=Nc1cccc2ccccc12 | ATCC 10231 |  | 16 µg/mL
CC(C)N=C(N)c1ccc2nc(-c3ccc4c(c3)Cc3cc(-c5nc6ccc(C(N)=NC(C)C)cc6[nH]5)ccc3-4)[nH]c2c1 | Isolate CA2601 fluconazole-resistant |  | 1.56 µg/mL
COc1ccccc1N=c1ssnc1Cl | ATCC 10231 |  | 16 µg/mL
Cc1ccc(/C=N/Nc2ccnc3cc(Cl)ccc23)cc1 |  |  | 100 µg/mL
CNc1ccc2cc(S(=O)(=O)O)cc(O)c2c1 |  | agar diffusion | 300 µg/mL
CCCCCOc1ccc(-c2ccc(-c3ccc(C(=O)N[C@H]4CCCNC(=O)C5[C@@H](O)CN5C(=O)C(C(C)O)NC(=O)C(CCc5ccc(O)cc5)NC(=O)C5C[C@@H](O)CN5C(=O)C(C(C)O)NC4=O)cc3)cc2)cc1 | ATCC 62376 |  | 0.2 µg/mL
O=S(=O)(O)c1cc(O)c2ccc(Nc3ccccc3)cc2c1 |  | agar diffusion | 10.28 µg/mL
Cc1ccc(/C(=N\OCc2ccc(Cl)cc2)c2oc3ccccc3c2C)cc1 |  |  | 16 µg/mL
CCCCCOc1ccc(-c2ccc(-c3ccc(C(=O)N[C@H]4CCCNC(=O)C5C[C@H](N)N5C(=O)C(C(C)O)NC(=O)C(CCc5ccc(O)cc5)NC(=O)C5C[C@@H](O)CN5C(=O)C(C(C)O)NC4=O)cc3)cc2)cc1 | ATCC 10231 |  | 0.2 µg/mL
CCCCCCn1c(-c2ccc([N+](=O)[O-])cc2)cc(C(=O)N2CCN(C)CC2)c1C | 20 strains |  | >200 µg/mL
Cc1c(/C(=N/OCc2ccccc2)c2ccccc2)oc2ccccc12 |  |  | >512 µg/mL
Nc1ccc2cc(S(=O)(=O)O)cc(O)c2c1 |  | agar diffusion | 300 µg/mL
CCCCCCCCCCn1c(-c2ccc([N+](=O)[O-])cc2)cc(C(=O)N(CCO)CCO)c1C | 20 strains |  | >200 µg/mL
Nc1ccc2c(O)cc(S(=O)(=O)O)cc2c1 |  | agar diffusion | 100 µg/mL
COc1cccc(-c2nc3ncccn3c2N=O)c1 |  |  | 8 µg/mL
O=[N+]([O-])c1cccc(/C=N/Nc2ccnc3cc(Cl)ccc23)c1 |  |  | >200 µg/mL
Cc1c(/C(=N/OCc2ccc(Cl)cc2)c2ccccc2)oc2ccccc12 |  |  | 256 µg/mL
Cc1c(C(=O)N2CCN(C)CC2)cc(-c2ccc([N+](=O)[O-])cc2)n1C | 20 strains |  | >200 µg/mL
CCCCCCCCCCCCOc1ccc(-c2ccc(C(=O)N[C@H]3CCCNC(=O)C4C[C@H](N)CN4C(=O)C(C(C)O)NC(=O)C(CCc4ccc(O)cc4)NC(=O)C4C[C@@H](O)CN4C(=O)C(C(C)O)NC3=O)cc2)cc1 | ATCC 10231 |  | 0.39 µg/mL
O=Nc1c(-c2ccccc2)nc2ncccn12 |  |  | 14 µg/mL
Cc1ccc(/C(=N\OC(=O)c2ccccc2)c2oc3ccccc3c2C)cc1 |  |  | 64 µg/mL
Clc1nssc1=Nc1ccccc1 | ATCC 10231 |  | 16 µg/mL
O=Nc1c(-c2ccc(F)cc2)nc2ncccn12 |  |  | 15 µg/mL
CNC1C(C)OC(O[C@H]2c3cc(C)c(C(=O)N[C@@H](CO)C(=O)O)c(O)c3-c3c(cc4c(c3O)C(=O)c3cc(OC)cc(O)c3C4=O)[C@@H]2O)C(O)C1OC1OCC(O)C(O)C1O | A9540 |  | 12.5 µg/mL
Nc1ccc2cc(S(=O)(=O)O)ccc2c1 |  | agar diffusion | 200 µg/mL
OC(Cn1cncn1)(Cn1cncn1)c1ccc(F)cc1F | E81022 |  | 0.39 µg/mL
Cc1c(C(=O)N(CCO)CCO)cc(-c2ccc([N+](=O)[O-])cc2)n1Cc1ccccc1 | 20 strains |  | >200 µg/mL
CCCCCOc1ccc(-c2ccc(-c3ccc(C(=O)N[C@H]4CCCNC(=O)C5C[C@H](NC6CCNCC6)CN5C(=O)C(C(C)O)NC(=O)C(CCc5ccc(O)cc5)NC(=O)C5C[C@@H](O)CN5C(=O)C(C(C)O)NC4=O)cc3)cc2)cc1 | ATCC 62376 |  | 0.39 µg/mL
O=Nc1c(-c2cccc([N+](=O)[O-])c2)nc2ncccn12 |  |  | 9 µg/mL
CCCCCOc1ccc(-c2ccc(-c3ccc(C(=O)N[C@H]4CCCNC(=O)C5C[C@H](N=C(N)N)CN5C(=O)C(C(C)O)NC(=O)C(CCc5ccc(O)cc5)NC(=O)C5C[C@@H](O)CN5C(=O)C(C(C)O)NC4=O)cc3)cc2)cc1 | ATCC 10231 |  | 0.2 µg/mL
O=S(=O)(O)c1cc(S(=O)(=O)O)c2cc(O)ccc2c1 |  | agar diffusion | 200 µg/mL
CCCCCCCCOc1ccc(N2CCN(c3ccc(C(=O)N[C@H]4CCCNC(=O)C5C[C@H](N)CN5C(=O)C(C(C)O)NC(=O)C(CCc5ccc(O)cc5)NC(=O)C5C[C@@H](O)CN5C(=O)C(C(C)O)NC4=O)cc3)CC2)cc1 | ATCC 10231 |  | 0.2 µg/mL
COc1ccc(C2NC(=O)Nc3[nH]c(=O)sc32)cc1OC | ATCC 10231 | agar diffusion | 312.5 µg/mL
CCC(C)n1ncn(-c2ccc(N3CCN(c4ccc(OC[C@H]5CO[C@](Cn6cncn6)(c6ccc(Cl)cc6Cl)O5)cc4)CC3)cc2)c1=O | E81022 |  | 0.025 µg/mL
Nc1cc(S(=O)(=O)O)cc2c(S(=O)(=O)O)ccc(S(=O)(=O)O)c12 |  | agar diffusion | 100 µg/mL

Repeating the final 3 entries:

SMILES	strain	method	result
COc1ccc(C2NC(=O)Nc3[nH]c(=O)sc32)cc1OC	ATCC 10231	agar diffusion	312.5 µg/mL
CCC(C)n1ncn(-c2ccc(N3CCN(c4ccc(OC[C@H]5CO[C@](Cn6cncn6)(c6ccc(Cl)cc6Cl)O5)cc4)CC3)cc2)c1=O	E81022		0.025 µg/mL
Nc1cc(S(=O)(=O)O)cc2c(S(=O)(=O)O)ccc(S(=O)(=O)O)c12		agar diffusion	100 µg/mL